The supplement of paper PMC9931576
Substitutions are numbered along the chain they refer to. Human monoclonal antibodies against the spike receptor-binding domain (heavy:light variable regions). IC50 against pseudoviruses bearing the spike of naturally observed variants; lower = stronger; >10 µg/ml means not reached at the top dose. No active / inactive call. The stated detection limit is 0.0005 µg/ml; values near or below 0.001 µg/ml lie at the floor of the assay.

B1: BD55-6362 (protein)
chain 1: EVQLLESGGGLAPPGGSLRLACSASGFTFRTEAMSWLRQAPGKGLEWVSAITDSGVGTFYTDSVQGRFTISRDNSKNTLFLHMSGLRGEDTAVYYCAKEGGYCSGTSCYNWFDPWGPGTLVTVSS
chain 2: DIQMTQSPSSLSAYVGDRVTITCRASQRIGTHLNWYQQKPGKAPRLLIYAASSLQSGVPSRFSGSGSGTDFTLTISSLQPEDFATYHCQQSYETPQWTFGQGTKVEIK
B2: BD55-6367 (protein)
chain 1: QVQLVESGGGVVQPGRSLRLSCAASGFTFSSHGMHWVRQTPGKGLEWVAVISSDGRGKFHADSVKGRFTISRDNSKNTLFLQLSSLRPEDTAVYYCARDSNTMIVEVLDYWGQGTLVTVSS
chain 2: DIQMTQSPSSLSASVGATVTITCRASQTISGYLNWYQQKPGKAPKLLIYAASSLQSGVPSRFSGSGSGTDFTLTISSLQPEDFATYYCQQSYTSPEYTFGQGTKLEIK
B3: BD55-6372 (protein)
chain 1: EVRLVESGGGVVQPGGSLRLSCAASEFTSDDYAMHWVRQAPGKALEWVSLISGADDTAYYADSVRGRFTISRGNSKNSLYLQMTSLRTEDTALYFCARDSHTSGFYYFDSWGQGALVTVSS
chain 2: B2 chain 2 with A17D, T18R, G31I, I48V, Y87F, S94T, E96G, Y97W
B4: BD55-1233 (protein)
chain 1: QVHLVQSGAEVKKPGASVKVSCKASGYTFTSYGISWVRQAPGQGLECMGWISAYNDKTNYTQKFQGRVTMTTDTSTSTAYMELRSLRSDDTAVYYCARILNYYDRRGNYYAEEYFQYWGQGSLVIVSS
chain 2: QSVLTQPPSVSGAPGQRVTISCTGSSSNIGAGFDVHWYQQFQGTAPKLLIYGNTNRPSGVPDRFSVSKSDTSASLAITGLQPEDEADYFCQSYDSNLSSPVFGGGTKLTVL
B5: BD55-6380 (protein)
chain 1: EAQLVESGGGLVKPGGSLRLSCAASGFIFSSDSMNWVRQAPGKGLEWVSSISRTSDLKFYADSVKGRFTISRDNAKNSLYLQMNSLRAEDTAVYYCAREVGSTRTWLDPWGQGTLVTVSS
chain 2: DIQMTQSPSSLSASVGDRVTITCRASQSISNYLNWYQQKPGKGPKLLIYAASNLQSGVPSRFSGSGSGTDFTLTISSLQPEDFATYYCQQSYVTPEFTFGPGTKVDIK
B6: BD55-6382 (protein)
chain 1: QVQLVQSGAEVKKPGSSVKVSCKASGGSFSNYAINWMRQAPGQGLEWMGQIIPSFGIANYAQKFQGRVTITADESTSTAYMELTNLRSEDAALYYCARDPFSTLGVVDVPTTQGYFDPWGQGSLVTVSS
chain 2: EIVLTQSPGTLSLSPGERGTLSCRASQSVSTYLAWYQQKPGQAPTLLIYDASSRATGIPDRFSGSGSGTAFTLTISRLEPEDFAVYYCQQYGTSLRTFGQGTKLEIK

Assays:
Test in all cases: pseudovirus neutralization IC50; higher = weaker neutralization
[1] = target: SARS-CoV-2 Omicron BA.1 spike pseudovirus
Description: (§1)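 Single-round VSV luciferase pseudovirus mixed with antibody dilutions for 1 h and put on Huh-7 cells for about a day; IC50 from the dose curve.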

[2] = target: SARS-CoV-2 Omicron BA.2 spike pseudovirus
Description: as §1

[3] = target: SARS-CoV-2 Omicron BA.2.75 spike pseudovirus
Description: as §1

[4] = target: SARS-CoV-2 Omicron BA.5 spike pseudovirus
Description: as §1

[5] = target: SARS-CoV-2 Omicron BQ.1.1 spike pseudovirus
Description: as §1

[6] = target: SARS-CoV-2 Omicron XBB spike pseudovirus
Description: as §1

[7] = target: SARS-CoV-2 early D614G spike pseudovirus
Description: as §1

| Binder | pseudovirus neutralization IC50 [1] [µg/mL] | pseudovirus neutralization IC50 [2] [µg/mL] | pseudovirus neutralization IC50 [3] [µg/mL] | pseudovirus neutralization IC50 [4] [µg/mL] | pseudovirus neutralization IC50 [5] [µg/mL] | pseudovirus neutralization IC50 [6] [µg/mL] | pseudovirus neutralization IC50 [7] [µg/mL] |
| --- | --- | --- | --- | --- | --- | --- | --- |
| B1 | > 10 | > 10 | > 10 | > 10 | > 10 | > 10 | > 10 |
| B2 | > 10 | > 10 | > 10 | > 10 | > 10 | > 10 | 4.36 |
| B3 | > 10 | > 10 | > 10 | > 10 | > 10 | > 10 | > 10 |
| B4 | 2.04 | > 10 | > 10 | > 10 | > 10 | > 10 | 0.191 |
| B5 | > 10 | > 10 | > 10 | > 10 | > 10 | > 10 | > 10 |
| B6 | > 10 | > 10 | > 10 | > 10 | > 10 | > 10 | 0.00478 |
